Experimental data reported in patent publication US20140294925A1 (priority 2013, published 2014).

Tested on: multidrug-resistant C. difficile ATCC BAA1382 (MDR-CD)

ramoplanin
MIC (comb.): 0.0125 µg/mL | MIC for ramoplanin: 0.0125 µg/mL
